Data on one substance can be found in patent US6506381B1, “Modified red blood cell that has surface molecules that neutralize chemical agents” (dated 2003).

The test system of the test is S. aureus. Briefly: killing of bacteria by addition of hemin. As to conditions: oxygen required.

hemin: the killing of bacteria entry was “has been demonstrated”.
